Measurements reported in PubChem BioAssay AID624099 (ICCB-Longwood, 2012)

- Screen: 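Human genes that papillomavirus E2 requires to repress the HPV18 LCR promoter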 (primary screen)
- Cell system: human C33A cervical carcinoma cells (HPV-negative) stably expressing BPV1 E2 and an HPV18 LCR luciferase reporter
- Reagent: siRNA pool against human genes, 40 nM
- Duration: 72 h
- Measured: 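HPV18 LCR reporter light per well, converted to plate-wise z-scores that exclude control wells, and averaged over triplicate plates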
- Reading the numbers: mean z-score and z-score: higher = stronger reporter signal, weaker E2 silencing
- Rule for the call: 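Mean z ≥ 2 together with z ≥ 2 in two or more of the three replicates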
Here is a random part of about 21,000 deposited reagents. 497 of them (2.4%) were called active. 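Higher z means weaker E2 silencing; only reporter increases were scored, and knock-downs that hurt cell survival may mask genuine repressor factors.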 Entries without a mark were called inactive.

GADL1 (GAD like acidic amino acid decarboxylase 1): mean z-score = 0.55; z-score, replicate A = 0.34; z-score, replicate B = 0.68; z-score, replicate C = 0.62
MIEF1 (mitochondrial elongation factor 1): mean z-score = 1.51; z-score, replicate A = 1.3; z-score, replicate B = 1.57; z-score, replicate C = 1.67
SAYSD1 (SAYSVFN motif domain containing 1): mean z-score = -1.5; z-score, replicate A = -1.44; z-score, replicate B = -1.68; z-score, replicate C = -1.39
JAG2 (jagged canonical Notch ligand 2): mean z-score = -0.27; z-score, replicate A = -0.3; z-score, replicate B = -0.38; z-score, replicate C = -0.12
ZSWIM3 (zinc finger SWIM-type containing 3): mean z-score = -0.52; z-score, replicate A = -0.63; z-score, replicate B = -0.78; z-score, replicate C = -0.16
LOC338694: mean z-score = -1.16; z-score, replicate A = -1.12; z-score, replicate B = -1.3; z-score, replicate C = -1.05
TTLL8 (tubulin tyrosine ligase like 8): mean z-score = 0.75; z-score, replicate A = 0.66; z-score, replicate B = 1.03; z-score, replicate C = 0.54

3 entries from above, sorted by “z-score, replicate C”, highest first:
JAG2 (jagged canonical Notch ligand 2): mean z-score = -0.27; z-score, replicate A = -0.3; z-score, replicate B = -0.38; z-score, replicate C = -0.12
ZSWIM3 (zinc finger SWIM-type containing 3): mean z-score = -0.52; z-score, replicate A = -0.63; z-score, replicate B = -0.78; z-score, replicate C = -0.16
LOC338694: mean z-score = -1.16; z-score, replicate A = -1.12; z-score, replicate B = -1.3; z-score, replicate C = -1.05

The list goes on.
TXNL4B (thioredoxin like 4B): mean z-score = 0.09; z-score, replicate A = 0.26; z-score, replicate B = 0.21; z-score, replicate C = -0.21
LOC401407 (retired record): mean z-score = -0.29; z-score, replicate A = -0.18; z-score, replicate B = -0.22; z-score, replicate C = -0.45
MEIS1 (Meis homeobox 1): mean z-score = -2.11; z-score, replicate A = -1.88; z-score, replicate B = -2.58; z-score, replicate C = -1.87
PSMD5 (proteasome 26S subunit, non-ATPase 5): mean z-score = -0.25; z-score, replicate A = -0.2; z-score, replicate B = -0.32; z-score, replicate C = -0.23
SLCO4A1: mean z-score = 2.29 (active); z-score, replicate A = 2.19; z-score, replicate B = 2.38; z-score, replicate C = 2.31
ARMC2 (armadillo repeat containing 2): mean z-score = -0.19; z-score, replicate A = -0.24; z-score, replicate B = -0.52; z-score, replicate C = 0.18
PRRT2 (proline rich transmembrane protein 2): mean z-score = 0.06; z-score, replicate A = 0.1; z-score, replicate B = -0.55; z-score, replicate C = 0.64
GPR32 (G protein-coupled receptor 32): mean z-score = 0.9; z-score, replicate A = 0.81; z-score, replicate B = 0.87; z-score, replicate C = 1.04
KRT73 (keratin 73): mean z-score = 2.3 (active); z-score, replicate A = 2.49; z-score, replicate B = 2.34; z-score, replicate C = 2.06
PPP4R1L (protein phosphatase 4 regulatory subunit 1 like (pseudogene)): mean z-score = 1.07; z-score, replicate A = 1.25; z-score, replicate B = 1.01; z-score, replicate C = 0.96
WDR5 (WD repeat domain 5): mean z-score = -1.02; z-score, replicate A = -0.74; z-score, replicate B = -0.97; z-score, replicate C = -1.34
PKD1L3: mean z-score = 1.07; z-score, replicate A = 0.82; z-score, replicate B = 1.29; z-score, replicate C = 1.09
SHOC1 (shortage in chiasmata 1): mean z-score = -0.77; z-score, replicate A = -0.43; z-score, replicate B = -0.86; z-score, replicate C = -1.02
PACRGL (parkin coregulated like): mean z-score = 0.68; z-score, replicate A = 0.61; z-score, replicate B = 0.65; z-score, replicate C = 0.79
